# Test system: NC(=O)c1ccc[n+]([C@@H]2O[C@H](COP(=O)(O)OP(=O)(O)OC[C@H]3O[C@@H](n4cnc5c(N)ncnc54)[C@H](O)[C@@H]3O)[C@@H](O)[C@H]2O)c1
# Test: purified protein
# Settings: 1 mM DL-isocitrate, 2 mM MnCl2, 50 mM Tris-HCl pH 7.5, 25 °C, varied: cofactor
Substance,Km,kcat,kcat/Km
PaIDH1 (Pseudomonas aeruginosa PAO1; K346D/V353A/Y347I),4500 ± 157.36 µM,4.73 ± 0.76 s⁻¹,–
PaIDH1 (Pseudomonas aeruginosa PAO1; K346D),"15,368.79 ± 2818 μM",0.003 ± 0.0003 s⁻¹,–
PaIDH1 (Pseudomonas aeruginosa PAO1; K346D/V353A/Y347I/Y393K),925.1 ± 83.81 µM,7.04 ± 0.71 s⁻¹,–
PaIDH2 (Pseudomonas aeruginosa PAO1; H589L),5927.3 ± 205.25 µM,10.9 s⁻¹,2000 M⁻¹ s⁻¹
PaIDH2 (Pseudomonas aeruginosa PAO1; H589L/R600I),5824.33 ± 346.01 µM,20.7 s⁻¹,4000 M⁻¹ s⁻¹

# Test system: NC(=O)c1ccc[n+]([C@@H]2O[C@H](COP(=O)(O)OP(=O)(O)OC[C@H]3O[C@@H](n4cnc5c(N)ncnc54)[C@H](OP(=O)(O)O)[C@@H]3O)[C@@H](O)[C@H]2O)c1
# Test: purified protein
# Settings: 1 mM DL-isocitrate, 2 mM MnCl2, 50 mM Tris-HCl pH 7.5, 25 °C, varied: cofactor
Substance,Km,kcat,kcat/Km
PaIDH1 (Pseudomonas aeruginosa PAO1; K346D),1715.67 ± 133.5 µM,39.56 ± 2.43 s⁻¹,–
PaIDH1 (Pseudomonas aeruginosa PAO1; Y393K),74.36 ± 5.28 µM,41.32 ± 1.95 s⁻¹,–
PaIDH2 (Pseudomonas aeruginosa PAO1; H589L),135.33 ± 14.4 µM,52.4 s⁻¹,390000 M⁻¹ s⁻¹
PaIDH2 (Pseudomonas aeruginosa PAO1; H589L/R600D),849.33 ± 71.92 µM,1.7 s⁻¹,2000 M⁻¹ s⁻¹
PaIDH2 (Pseudomonas aeruginosa PAO1; H589L/R600I),7770.67 ± 270.55 µM,16 s⁻¹,2000 M⁻¹ s⁻¹

# Reference: article PMC10574006, “Two Different Isocitrate Dehydrogenases from Pseudomonas aeruginosa: Enzymology and Coenzyme-Evolutionary Implications” (International Journal of Molecular Sciences, 2023)
